Literature values as cited in publication PMC5614878.
pKd: −log10 of the molar value.

Biological target: HIV-1 reverse transcriptase p51 p51 (Human immunodeficiency virus 1) (UniProt O93215)
Conditions: cited from earlier work

## HIV-1 reverse transcriptase p51 p51 (from UniProt O93215)
  pKd: 3.64
